PubChem BioAssay AID504761 | Drosophila RNAi Screening Center – 2011

Test: 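Insect host genes that dengue virus relies on to spread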 (primary screen)
Cells: D.Mel-2 cells from Drosophila
Reagent: long dsRNA against Drosophila genes
Challenge: infection with dengue virus type 2; dose and infection time not stated
Measurement: 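Per well on two replicate plates, imaging gave the percent of cells positive for viral envelope protein, ranked by infection, and a nuclear count of cells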
Reading the numbers: infection score: higher = more virus-infected cells; cell count: higher = more cells in the well
Active means: 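Low infection ranks in the two replicates (chance level up to 0.065) followed by a retest with a 1.5-fold or larger significant decrease, p below 0.05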
Calls: active = confirmed: knock-down lowers infection; inactive = not picked or not confirmed
In all, the deposit lists about 22,000 reagents; below is a random part of those with a known target gene and a result. In the full data, 116 (0.52%) are marked active. 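Calls depend on retest data that are not deposited; infection was ranked per plate without normalising between plates; the unit of the infection score is not given.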 Raw values vary from plate to plate and are shown uncorrected. Entries without a mark were called inactive. A plus sign joins genes that one reagent is predicted to hit. Not stated in the record: the amount of reagent, the time to read-out.

| target gene | DRSC id | infection score, replicate 1 | infection score, replicate 2 | cell count, replicate 1 | cell count, replicate 2 |
| --- | --- | --- | --- | --- | --- |
| CG42819 + CG42820 | DRSC28699 | 9.3 | 9.26 | 4894 | 5164 |
| hfw | DRSC18506 | 9.93 | – | 4813 | 321 |
| hfw | DRSC25958 | 7.18 | 4.49 | 6462 | 6212 |
| smo | DRSC00837 | 0.96 | 1.35 | 6160 | 6369 |
| smo | DRSC28492 | 6.51 | 11.4 | 2195 | 4247 |
| Ugt49B2 | DRSC16049 | 12.6 | 9.27 | 5665 | 5956 |
| Ugt49B2 | DRSC24548 | 6.07 | 16.4 | 2849 | 4987 |
| CG7208 | DRSC16212 | 2.42 | 2.37 | 7096 | 6167 |
| CG7208 | DRSC26213 | 13.2 | 5.51 | 6274 | 5864 |
| CG12994 | DRSC19514 | 3.47 | 2.6 | 6457 | 6343 |
| mus201 + Chrac-14 | DRSC03568 | 5.11 | – | 6366 | 484 |
| mus201 + Chrac-14 | DRSC03575 | 23.7 | 2.23 | 4848 | 6183 |
| CG11018 | DRSC06024 | – | 4.1 | 355 | 1244 |
| CG11018 | DRSC28771 | 8.04 | – | 2027 | 444 |
| rha | DRSC17044 | 14.2 | 10.4 | 5944 | 6487 |
| CG42733 | DRSC25375 | 8.44 | 9.99 | 6525 | 6457 |
| RpL19 | DRSC04649 | 15.6 | 3.34 | 1373 | 868 |
| RpL19 | DRSC28391 | 0.84 | 1.2 | 474 | 416 |
| CG13443 | DRSC06403 | 0.82 | 0.45 | 6370 | 6252 |
| mRpL1 | DRSC16251 | 9.09 | 9.97 | 5390 | 6086 |
| tefu | DRSC16060 | 13.8 | 27.7 | 5591 | 4507 |
| CG33483 | DRSC14019 | 6.58 | 4.74 | 6273 | 6420 |
| side | DRSC14523 | 7.88 | 18.2 | 3174 | 6142 |
| side | DRSC14716 | – | 6.48 | 328 | 7162 |
| side | DRSC14717 | 7.67 | 3.39 | 6465 | 855 |
| side | DRSC14718 | 1.71 | 5.29 | 6770 | 3385 |
| side | DRSC14721 | 2.05 | 6.82 | 6869 | 6397 |
| Takl2 | DRSC15650 | 0.92 | 7.15 | 6108 | 1832 |
| CG42685 | DRSC01971 | 1.78 | 1.06 | 6118 | 6416 |
| CG42361 | DRSC04391 | 6.63 | 11.9 | 6683 | 5890 |
| Trm1 | DRSC02951 | 8.83 | 8.76 | 6555 | 6242 |
| RpL24-like | DRSC16111 | 3.53 | 6.96 | 5300 | 4815 |
| CG11977 | DRSC14454 | 2.02 | 9.25 | 6822 | 6506 |
| Rexo5 | DRSC10981 | 5.47 | 13.9 | 6192 | 5581 |
| Listericin | DRSC07334 | 3.71 | 7.5 | 6821 | 6735 |
| Listericin | DRSC24374 | 11.3 | 2.28 | 6320 | 6217 |
| CG9410 + CG15908 | DRSC04976 | 8.12 | 6.07 | 6932 | 6297 |
| CG9410 + CG15908 | DRSC05001 | 7.94 | 23.8 | 6689 | 5560 |
| CG9410 + CG15908 | DRSC25956 | 2.05 | 1.22 | 6191 | 6531 |
| Hyccin | DRSC06983 | 8.34 | 18.6 | 2170 | 4765 |
| Tctp | DRSC15649 | 7.55 | 3.67 | 5751 | 6761 |
| Tctp | DRSC29100 | 7.92 | 9.76 | 1604 | 6128 |
| CG7276 | DRSC10797 | 2.62 | 18.6 | 6211 | 5679 |
| mthl5 | DRSC16155 | 2.41 | 2.03 | 6883 | 6899 |
| Prosalpha4T2 | DRSC04643 | 3.77 | 1.97 | 6718 | 6561 |
| Prosalpha4T2 | DRSC28312 | 10.4 | 13.1 | 5121 | 4299 |
| RunxB | DRSC20395 | 0.93 | 1.82 | 6131 | 6477 |
| RunxB | DRSC20525 | 4.66 | 0.26 | 5624 | 6221 |
| RunxB | DRSC20526 | 15.3 | 9.18 | 3241 | 3169 |
| RunxB | DRSC23150 | 1.19 | 3.7 | 6913 | 6948 |
| RunxB | DRSC28799 | 24.2 | 14.8 | 5352 | 4340 |
| D | DRSC11132 | 0.46 | 1.67 | 6053 | 6047 |
| D | DRSC25367 | 0.55 | 0.64 | 6876 | 7046 |
| Phae2 | DRSC02555 | 6.91 | 8.18 | 6050 | 6391 |
| CG5921 | DRSC17431 | 0.39 | 0.33 | 6392 | 6660 |
| CG5921 | DRSC18390 | 15.4 | 12.2 | 3732 | 5317 |
| CG5921 | DRSC27493 | 4.21 | 1.88 | 6825 | 6632 |
| spas | DRSC15929 | 6.26 | 4.1 | 6645 | 6215 |
| jeb | DRSC06305 | 3.52 | 7.56 | 6675 | 5635 |
| jeb | DRSC06307 | 5.33 | 25.1 | 6814 | 5223 |
| jeb | DRSC26882 | 5.9 | 11.3 | 6827 | 6376 |
| CG3701 (retired record) | DRSC04408 | – | 24.7 | 447 | 4230 |
| CG3701 (retired record) | DRSC04409 | 12.3 | 20.2 | 5200 | 2097 |
| CG7518 | DRSC16253 | – | 12 | 382 | 2725 |
| CG7518 | DRSC29146 | 28.2 | – | 4013 | 226 |
| CG18258 | DRSC19798 | 3.78 | 2.3 | 6447 | 6046 |
| CG18258 | DRSC29203 | 11.3 | 12.9 | 5756 | 3966 |
| CG43339 + CG43338 | DRSC02466 | 23.3 | 17.3 | 6333 | 5417 |
| IntS4 | DRSC17810 | 2.69 | 0.55 | 3859 | 4173 |
| Oatp26F | DRSC02149 | 3.84 | 2.4 | 6821 | 6633 |
| Oatp26F | DRSC02272 | 2.85 | 5.07 | 6807 | 6076 |
| Oatp26F | DRSC02695 | 2.95 | 2.1 | 6638 | 6053 |
| Oatp26F | DRSC27346 | 12.7 | 10.7 | 6252 | 6077 |
| CG7483 | DRSC16249 | 5.46 | 14.1 | 6617 | 6550 |
| CG7483 | DRSC22432 | 3.08 | 3.36 | 5429 | 5802 |
| CG7483 | DRSC26402 | 2.2 | 7.04 | 6318 | 5181 |

5 entries from above, set out differently.
{"target gene": "Tctp", "DRSC id": "DRSC15649", "infection score, replicate 1": 7.55, "infection score, replicate 2": 3.67, "cell count, replicate 1": 5751, "cell count, replicate 2": 6761}
{"target gene": "Tctp", "DRSC id": "DRSC29100", "infection score, replicate 1": 7.92, "infection score, replicate 2": 9.76, "cell count, replicate 1": 1604, "cell count, replicate 2": 6128}
{"target gene": "CG7276", "DRSC id": "DRSC10797", "infection score, replicate 1": 2.62, "infection score, replicate 2": 18.6, "cell count, replicate 1": 6211, "cell count, replicate 2": 5679}
{"target gene": "mthl5", "DRSC id": "DRSC16155", "infection score, replicate 1": 2.41, "infection score, replicate 2": 2.03, "cell count, replicate 1": 6883, "cell count, replicate 2": 6899}
{"target gene": "Prosalpha4T2", "DRSC id": "DRSC04643", "infection score, replicate 1": 3.77, "infection score, replicate 2": 1.97, "cell count, replicate 1": 6718, "cell count, replicate 2": 6561}
